Pooled drug test results. Numbers come from NIAID ChemDB, via PubChem.

All rows: target-level tests; species: HIV-1; protein: Reverse transcriptase

ICn is the concentration giving n% inhibition.

structure,method,endpoint,mutations,strain,result
CC(C)Nc1cccnc1N1CCN(C(=O)c2cc3cc(O)ccc3[nH]2)CC1,nucleotide incorporation,IC50,-,-,<100 µM
CC(C)(C)c1ccc(-n2nnnc2SCC(=O)Nc2ccc(NC(=O)Cc3cccnc3)cc2Cl)c(Cl)c1,PicoGreen / fluorescence,IC50,RT-K103 Y181C,-,<1 µM
CCOC(=O)CN(C)C(=O)c1ccc(NC(=O)CSc2nnc(Br)n2-c2ccc(C3CC3)c3ccccc23)c(Cl)c1,nucleotide incorporation / radiometric,IC50,RT-Y188L,-,>0.1 µM
CCN1c2ncc(CCc3ccncc3)cc2C(=O)N(C)c2ccc(N)nc21,nucleotide incorporation / radiometric,IC50,-,WT,<1 µM
CC(C)(C#Cc1ccc(NC(=O)CSc2nnnn2-c2ccc(C3CC3)cc2Cl)c(Cl)c1)NS(C)(=O)=O,PicoGreen / fluorescence,IC50,-,WT,<1 µM
CC(C)Nc1ccnnc1N1CCN(C(=O)c2cc3cc(F)ccc3[nH]2)CC1,nucleotide incorporation,IC50,-,-,<100 µM
O=C(CSc1nnc(Br)n1-c1c(Cl)cc(C2CCC2)c2ccccc12)Nc1ccc(C(=O)O)cc1Cl,nucleotide incorporation / radiometric,IC50,RT-Y181C,-,<0.05 µM
CCN1c2ncc(CCOc3ccc4[nH]c(=O)[nH]c4c3)cc2C(=O)N(C)c2cccnc21,nucleotide incorporation / radiometric,IC50,RT-K103N Y181C,IIIB,>0.1 µM
CCN1c2ncc(CCc3ccccc3)cc2C(=O)N(C)c2cccnc21,RT activity,IC50,RT-Y188L RT-Y181C,IIIB,>>1 µM
CC(C)=CCN1Cc2cc(Cl)cc3[nH]c(=O)n(c23)C[C@@H]1C,RT activity,IC50,RT-L100I,-,31 µM
CCc1ccc(-n2c(Br)nnc2SCC(=O)Nc2ccc(C(=O)NCC(OC)OC)cc2Cl)c2ccccc12,nucleotide incorporation / radiometric,IC50,RT-Y181C,-,<0.05 µM
CC(C)(C)c1ccc(-n2nnnc2SCC(=O)Nc2ccc(S(=O)(=O)NCCO)cc2Cl)c(Cl)c1,PicoGreen / fluorescence,IC50,-,WT,<1 µM
Cc1cc(C2CC2)cc(Cl)c1-n1c(Br)nnc1SCC(=O)Nc1ccc(S(N)(=O)=O)cc1Cl,nucleotide incorporation / radiometric,IC50,RT-Y188L,-,>0.1 µM
CCN1c2ncc(CCOc3cccc4c3CN(C)C(=O)N4C)cc2C(=O)Nc2c(C)ccnc21,nucleotide incorporation / radiometric,IC50,RT-K103N Y181C,IIIB,>0.1 µM
CCOC(=O)CCNC(=O)c1ccc(NC(=O)CSc2nnc(Br)n2-c2ccc(C3CC3)c3ccccc23)c(Cl)c1,nucleotide incorporation / radiometric,IC50,RT-Y181C,-,<0.05 µM
CC(C)Nc1cccnc1NCCNC(=O)c1cc2ccccc2[nH]1,nucleotide incorporation,IC50,-,-,>100 µM
Cc1ccc(-n2c(SCC(=O)Nc3ccc(C(=O)O)cc3Cl)nnc2C(F)F)c2c1CCCC2,nucleotide incorporation / radiometric,IC50,RT-Y181C,-,<0.05 µM
CCN1c2ncc(CCOc3cccc4c3CNC(=O)O4)cc2C(=O)N(C)c2cccnc21,nucleotide incorporation / radiometric,IC50,RT-K103N Y181C,IIIB,<0.05 µM
CC(C)(C)c1ccc(-n2nnnc2SCC(=O)Nc2ccc(OCC(=O)N3CCC(C(=O)O)CC3)cc2Cl)c(Cl)c1,PicoGreen / fluorescence,IC50,-,WT,<1 µM
CCN1c2ncc(CCc3ccccc3)cc2C(=O)N(C)c2c1ncc(C)c2C,nucleotide incorporation / radiometric,IC50,-,WT,<1 µM
CC(C)(C#Cc1ccc(NC(=O)CSc2nnnn2-c2cc(C3CC3)ccc2Cl)c(Cl)c1)NC(=O)CN1CCNCC1,PicoGreen / fluorescence,IC50,RT-K103 Y181C,-,<1 µM
CC(Sc1nnc(Br)n1-c1ccc(C2CC2)c2ccccc12)C(=O)Nc1ccc(S(N)(=O)=O)cc1Cl,nucleotide incorporation / radiometric,IC50,-,-,<0.05 µM
CC(C)(C)c1ccc(-n2nnnc2SCC(=O)Nc2ccc(NC(=O)c3ccccc3Cl)cc2Cl)c(Cl)c1,PicoGreen / fluorescence,IC50,RT-K103 Y181C,-,<1 µM
CCN1c2ncc(CCc3ccnc(C)c3)cc2C(=O)N(C)c2ccc(Cl)nc21,nucleotide incorporation / radiometric,IC50,-,WT,<1 µM
CC(C)(C)Nc1cccnc1N1CCN(C(=O)c2cc3ccccc3[nH]2)CC1,nucleotide incorporation,IC50,-,-,<100 µM
CC(C)(C#Cc1ccc(NC(=O)CSc2nnnn2-c2cc(C(F)(F)F)ccc2Cl)c(Cl)c1F)NC(=O)c1cc[n+]([O-])cc1,PicoGreen / fluorescence,IC50,-,WT,<1 µM
CN(C)c1nc(N)nc2c1ncn2[C@H]1C[C@H](N=[N+]=[N-])[C@@H](CO)O1,nucleotide incorporation,IC50,L74V,-,>50 µM
CN(C)CC(=O)NC(C)(C)C#Cc1ccc(NC(=O)CSc2nnnn2-c2cc(C(F)(F)F)ccc2Cl)c(Cl)c1,PicoGreen / fluorescence,IC50,RT-K103 Y181C,-,<1 µM
CCN1c2ncc(CCOc3cccc4c3C(C)(C)OC(=O)N4)cc2C(=O)N(C)c2cccnc21,nucleotide incorporation / radiometric,IC50,-,IIIB,0.05–0.1 µM
CCc1ccc(-n2c(Br)nnc2SCC(=O)Nc2ccc(C(=O)NCCC#N)cc2Cl)c2ccccc12,nucleotide incorporation / radiometric,IC50,RT-Y181C,-,0.05–0.1 µM
Cc1cc(C)cc(S(=O)(=O)c2c(C(N)=O)[nH]c3ccc(F)c(F)c23)c1,nucleotide incorporation / radiometric,IC50,RT-Y181I,-,1.5 µM
COC(=O)c1cccc(-c2ccc(NC(=O)CSc3nnnn3-c3ccc(C)cc3Cl)c(Cl)c2)c1,PicoGreen / fluorescence,IC50,-,WT,<1 µM
Cc1cc(C)cc(S(=O)(=O)c2c(C(=O)NC(C)C(N)=O)[nH]c3ccc(Cl)cc23)c1,nucleotide incorporation / radiometric,IC50,-,WT,0.003 µM
Cc1ccc2c(C)cc(C)c(-n3c(SCC(=O)Nc4ccc(S(N)(=O)=O)cc4Cl)nnc3C(F)F)c2n1,nucleotide incorporation / radiometric,IC50,RT-Y181C,-,0.05–0.1 µM
N#Cc1ccc2c(c1)CN(c1nn3c(C4CC4)nnc3c3ccccc13)CC2,RT activity / fluorescence,IC50,-,KER2008,1.71 µM
CCN1c2ncc(CCOc3cccc4c3n(C)c(=O)n4C)cc2C(=O)N(C)c2cccnc21,nucleotide incorporation / radiometric,IC50,-,IIIB,0.05–0.1 µM
CCc1ccc(-n2c(Br)nnc2SCC(=O)Nc2ccc(C(=O)NCC3CCCO3)cc2Cl)c2ccccc12,nucleotide incorporation / radiometric,IC50,RT-Y188L,-,<0.05 µM
Fc1ccc2c(c1)CCN(c1nn3c(C4CC4)nnc3c3ccccc13)C2,RT activity / fluorescence,IC50,-,KER2008,1.5 µM
CC(C)(C#Cc1ccc(NC(=O)CSc2nnnn2-c2cc(Br)ccc2Cl)c(Cl)c1)NC(=O)c1cc[n+]([O-])cc1,PicoGreen / fluorescence,IC50,-,WT,<1 µM
CCN1c2ncc(CCc3ccccc3)cc2C(=O)N(C)c2ccc(Cl)nc21,RT activity,IC50,-,IIIB,0.05 µM
CC(C)(C#Cc1ccc(NC(=O)CSc2nnnn2-c2cc(C3CC3)cc(C(F)(F)F)c2Cl)c(Cl)c1)C(=O)O,PicoGreen / fluorescence,IC50,RT-K103 Y181C,-,<1 µM
NS(=O)(=O)c1ccc(NC(=O)CSc2nnc(Br)n2-c2ccc(C3CC3)cc2OC(F)(F)F)c(Cl)c1,nucleotide incorporation / radiometric,IC50,RT-Y188L,-,>0.1 µM
CC(C)(C)CNc1cccnc1N1CCN(C(=O)c2cc3ccccc3[nH]2)CC1,nucleotide incorporation,IC50,-,-,>100 µM
O=C(CSc1nnc(Br)n1-c1ccc(C2CC2)cc1OC(F)(F)F)Nc1ccc(S(=O)(=O)O)cc1Cl,nucleotide incorporation / radiometric,IC50,RT-Y188L,-,>0.1 µM
CC(C)(C#Cc1ccc(NC(=O)CSc2nnnn2-c2cc(C(F)(F)F)cc(Cl)c2Cl)c(Cl)c1)NC(=O)c1cc[n+]([O-])cc1,PicoGreen / fluorescence,IC50,RT-K103 Y181C,-,<1 µM
CCc1ccc(-n2c(Br)nnc2SCC(=O)Nc2ccc(C(=O)O)cc2Br)c2ccccc12,nucleotide incorporation / radiometric,IC50,-,-,<0.05 µM
CCN1c2nc(Cl)ccc2NC(=O)c2cc(CCc3cccc(NS(C)(=O)=O)c3)cnc21,nucleotide incorporation / radiometric,IC50,-,WT,<1 µM
CN(C)S(=O)(=O)NC(=O)C(C)(C)C#Cc1ccc(NC(=O)CSc2nnnn2-c2ccc(C3CC3)cc2Cl)c(Cl)c1,PicoGreen / fluorescence,IC50,-,WT,<1 µM
CC(C)Nc1cccnc1N(C)N(C)C(=O)c1cc2ccccc2[nH]1,nucleotide incorporation,IC50,-,-,>100 µM
Cc1nnc2c3c(c(N4CCc5ccccc5C4)nn12)C1CCC3CC1,RT activity / fluorescence,IC90,-,KER2008,9.27 µM
CC(C)(C#Cc1ccc(NC(=O)CSc2nnnn2-c2ccc(C3(C)CC3)cc2Cl)c(Cl)c1)C(=O)O,PicoGreen / fluorescence,IC50,-,WT,<1 µM
CCCCNC(=O)c1ccc(NC(=O)CSc2nnc(Br)n2-c2ccc(CC)c3ccccc23)c(Cl)c1,nucleotide incorporation / radiometric,IC50,RT-Y188L,-,>0.1 µM
CCc1cc(NCc2nc3c(C)ccc(C)c3o2)c(=O)[nH]c1C,nucleotide incorporation,IC50,RT-Y181S,-,4.27 µM
O=C(COc1ccc(NC(=O)CSc2nnnn2-c2ccc(C3CC3)cc2Cl)c(Cl)c1)NCCc1ccc[n+]([O-])c1,PicoGreen / fluorescence,IC50,-,WT,<1 µM
Cc1cc(S(N)(=O)=O)ccc1NC(=O)CSc1nnc(Br)n1-c1ccc(C)c2c1CCCC2,nucleotide incorporation / radiometric,IC50,RT-Y181C,-,<0.05 µM
CCN1c2ncc(CCOc3cccc4c3COC(=O)N4CC(=O)O)cc2C(=O)N(C)c2cccnc21,nucleotide incorporation / radiometric,IC50,RT-K103N Y181C,IIIB,>0.1 µM
CCc1ccc(-n2c(Br)nnc2SCC(=O)Nc2ccc(C(=O)NCCOC)cc2Cl)c2ccccc12,nucleotide incorporation / radiometric,IC50,RT-Y181C,-,<0.05 µM
CC(C)(C#Cc1ccc(NC(=O)CSc2nnnn2-c2ccc(C3CC3)cc2Cl)c(Cl)c1)C(=O)NC(C)(C)C(=O)O,PicoGreen / fluorescence,IC50,RT-K103 Y181C,-,<1 µM
CCc1ccc(-n2c(Br)nnc2SCC(=O)Nc2ccc(C(=O)N3CCCCC3CO)cc2Cl)c2ccccc12,nucleotide incorporation / radiometric,IC50,RT-Y188L,-,>0.1 µM
CC(C)(C#Cc1ccc(NC(=O)CSc2nnnn2-c2cc(C(C)(C)C)cc(Br)c2Cl)c(Cl)c1)NC(=O)CN=c1ccn(O)cc1,PicoGreen / fluorescence,IC50,-,WT,<1 µM
COc1cc2c(cc1[N+](=O)[O-])CN(c1nn3c(C4CC4)nnc3c3ccccc13)CC2,RT activity / fluorescence,IC90,-,KER2008,74.9 µM
CC(C)(C#Cc1ccc(NC(=O)CSc2nnnn2-c2ccc(C(C)(C)C)cc2Cl)c(Cl)c1)OCC(=O)N1CCOCC1,PicoGreen / fluorescence,IC50,-,WT,<1 µM
COC(=O)[C@H](CC(C)C)NC(=O)c1ccc(NC(=O)CSc2nnc(Br)n2-c2ccc(C3CC3)c3ccccc23)c(Cl)c1,nucleotide incorporation / radiometric,IC50,RT-Y188L,-,0.05–0.1 µM
CC(C)(C#Cc1ccc(NC(=O)CSc2nnnn2-c2ccc(C(C)(C)C)cc2Cl)c(Cl)c1)OCC(=O)Nc1ccon1,PicoGreen / fluorescence,IC50,-,WT,<1 µM
CCc1ccc(-n2c(I)nnc2SCC(=O)Nc2ccc(S(N)(=O)=O)cc2Cl)c2ccccc12,nucleotide incorporation / radiometric,IC50,-,-,<0.05 µM
CC(C)(C#Cc1ccc(NC(=O)CSc2nnnn2-c2cc(C(F)(F)F)c(C3CC3)cc2Cl)c(Cl)c1)C(=O)O,PicoGreen / fluorescence,IC50,-,WT,<1 µM
O=C(CSc1nnc(C(F)F)n1-c1ccc(C2CC2)c2ccccc12)Nc1ccc(C(=O)O)cc1Cl,nucleotide incorporation / radiometric,IC50,-,-,<0.05 µM

8 of the rows above, restated:

{"structure": "CC(C)(C)c1ccc(-n2nnnc2SCC(=O)Nc2ccc(OCC(=O)N3CCC(C(=O)O)CC3)cc2Cl)c(Cl)c1", "method": "PicoGreen / fluorescence", "endpoint": "IC50", "strain": "WT", "result": "<1 µM"}
{"structure": "CCN1c2ncc(CCOc3cccc4c3C(C)(C)OC(=O)N4)cc2C(=O)N(C)c2cccnc21", "method": "nucleotide incorporation / radiometric", "endpoint": "IC50", "strain": "IIIB", "result": "0.05–0.1 µM"}
{"structure": "CCc1cc(NCc2nc3c(C)ccc(C)c3o2)c(=O)[nH]c1C", "method": "nucleotide incorporation", "endpoint": "IC50", "mutations": "RT-Y181S", "result": "4.27 µM"}
{"structure": "CCc1ccc(-n2c(Br)nnc2SCC(=O)Nc2ccc(C(=O)NCCC#N)cc2Cl)c2ccccc12", "method": "nucleotide incorporation / radiometric", "endpoint": "IC50", "mutations": "RT-Y181C", "result": "0.05–0.1 µM"}
{"structure": "CC(Sc1nnc(Br)n1-c1ccc(C2CC2)c2ccccc12)C(=O)Nc1ccc(S(N)(=O)=O)cc1Cl", "method": "nucleotide incorporation / radiometric", "endpoint": "IC50", "result": "<0.05 µM"}
{"structure": "CCN1c2ncc(CCc3ccncc3)cc2C(=O)N(C)c2ccc(N)nc21", "method": "nucleotide incorporation / radiometric", "endpoint": "IC50", "strain": "WT", "result": "<1 µM"}
{"structure": "CCN1c2nc(Cl)ccc2NC(=O)c2cc(CCc3cccc(NS(C)(=O)=O)c3)cnc21", "method": "nucleotide incorporation / radiometric", "endpoint": "IC50", "strain": "WT", "result": "<1 µM"}
{"structure": "Cc1cc(C)cc(S(=O)(=O)c2c(C(N)=O)[nH]c3ccc(F)c(F)c23)c1", "method": "nucleotide incorporation / radiometric", "endpoint": "IC50", "mutations": "RT-Y181I", "result": "1.5 µM"}

Neighbouring rows are from separate reports. Two numbers with a dash give a range or band. Blank or dashed fields: not listed here.